Measurements reported in PubChem BioAssay AID504761 (Drosophila RNAi Screening Center, 2011)
The deposit covers about 22,000 reagents; below is an unselected part of those that have a named target and a result. In the full data, 116 (0.52%) are marked active. 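Calls depend on retest data that are not deposited; infection was ranked per plate without normalising between plates; the unit of the infection score is not given.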 Raw values are not corrected between plates. A number with no mark means an inactive call. No sequences are given here. Not given: the amount of reagent, the time to read-out.

Test: 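Fly genes whose silencing reduces dengue virus type 2 infection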 (primary screen)
System: D.Mel-2 cells from Drosophila
Knock-down reagent: long dsRNA against Drosophila genes
Challenge: infection with dengue virus type 2; dose and infection time not stated
Measured: 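Per well on two replicate plates, imaging gave the percent of cells positive for viral envelope protein, ranked by infection, and a nuclear count of cells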
Scale: infection score: higher = more virus-infected cells; cell count: higher = more cells in the well
Hit rule: 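Low infection ranks in the two replicates (chance level up to 0.065) followed by a retest with a 1.5-fold or larger significant decrease, p below 0.05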
Meaning of the calls: active = confirmed: knock-down lowers infection; inactive = not picked or not confirmed

Depletion of CG12498 [DRSC18635] gave: infection score, replicate 1 = 11.7; infection score, replicate 2 = 11.8; cell count, replicate 1 = 4153; cell count, replicate 2 = 5643.
BubR1 [DRSC04838] gave infection score, replicate 1 = 11.1; infection score, replicate 2 = 26.6; cell count, replicate 1 = 4895; cell count, replicate 2 = 3518.
mol [DRSC01431] scored infection score, replicate 1 = 3.02; infection score, replicate 2 = 6.9; cell count, replicate 1 = 5854; cell count, replicate 2 = 5666.
For mol [DRSC01912], the entry reads infection score, replicate 1 = 7.3; infection score, replicate 2 = 4.96; cell count, replicate 1 = 6370; cell count, replicate 2 = 5765.
mol [DRSC02479] gave infection score, replicate 2 = 3.29; cell count, replicate 1 = 577; cell count, replicate 2 = 7028.
After knock-down of mol [DRSC23967], the record shows infection score, replicate 1 = 17; infection score, replicate 2 = 4.11; cell count, replicate 1 = 4918; cell count, replicate 2 = 6104.
Against schlank [DRSC18102] the deposit lists infection score, replicate 1 = 1.1; infection score, replicate 2 = 4.63; cell count, replicate 1 = 6186; cell count, replicate 2 = 6075.
schlank [DRSC18313] showed infection score, replicate 1 = 14.8; infection score, replicate 2 = 24.6; cell count, replicate 1 = 5605; cell count, replicate 2 = 4905.
With knock-down of CG18636 [DRSC02685] the results were infection score, replicate 1 = 19.1; infection score, replicate 2 = 3.49; cell count, replicate 1 = 5799; cell count, replicate 2 = 6843.
Against CG18636 [DRSC24922] the deposit lists infection score, replicate 1 = 22.9; infection score, replicate 2 = 29.5; cell count, replicate 1 = 6841; cell count, replicate 2 = 6649.
Against CG13230 [DRSC06350], the entry reads infection score, replicate 1 = 3.09; infection score, replicate 2 = 2.35; cell count, replicate 1 = 6955; cell count, replicate 2 = 6685.
Depletion of CG13230 [DRSC26778] resulted in: infection score, replicate 1 = 14.3; infection score, replicate 2 = 7.07; cell count, replicate 1 = 6419; cell count, replicate 2 = 6227.
For Fcp3C [DRSC18665], the entry reads infection score, replicate 1 = 0.93; infection score, replicate 2 = 3.12; cell count, replicate 1 = 6465; cell count, replicate 2 = 6191.
Knock-down of RhoGAP100F [DRSC15409] gave: infection score, replicate 1 = 4.89; infection score, replicate 2 = 1.09; cell count, replicate 1 = 5847; cell count, replicate 2 = 6444.
After knock-down of RhoGAP100F [DRSC28096], the screen gave infection score, replicate 1 = 9.97; infection score, replicate 2 = 32.9; cell count, replicate 1 = 6639; cell count, replicate 2 = 5657.

2 entries from above, set out differently:
CG13230 [DRSC26778]
- infection score, replicate 1: 14.3
- infection score, replicate 2: 7.07
- cell count, replicate 1: 6419
- cell count, replicate 2: 6227

Fcp3C [DRSC18665]
- infection score, replicate 1: 0.93
- infection score, replicate 2: 3.12
- cell count, replicate 1: 6465
- cell count, replicate 2: 6191
